Fitness effects across NS2B and the NS3 protease domain of Zika virus

Chain scanned (Zika virus MR766; NS2B from position 2 to 131, then the start of NS3):
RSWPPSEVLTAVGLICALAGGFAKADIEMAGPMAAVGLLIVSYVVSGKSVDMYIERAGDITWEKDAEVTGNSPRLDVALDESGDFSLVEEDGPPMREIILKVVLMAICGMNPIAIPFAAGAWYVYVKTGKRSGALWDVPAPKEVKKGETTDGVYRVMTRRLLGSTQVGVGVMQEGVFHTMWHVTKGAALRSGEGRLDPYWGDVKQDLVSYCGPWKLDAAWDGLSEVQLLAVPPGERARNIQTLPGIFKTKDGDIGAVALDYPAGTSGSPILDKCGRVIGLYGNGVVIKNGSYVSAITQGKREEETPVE

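Pools of virus carrying all single amino acid changes were selected for growth in Huh-7.5 cells. The effect is the change in frequency of a mutant, normalised to wild type, as a mean of three replicate libraries (two for positions 207-308). The study looked for pockets that tolerate few changes, as a guide for inhibitor design.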

Scale: log2 effect, wild type = 0; the lower, the more harmful to the virus. Substitutions are written as wild-type residue, site number, new residue. This list holds changes to tyrosine only. Positions 1-103, 104-206 and 207-308 were made and measured as separate libraries. Six mutants with high scores were retested singly and none clearly outgrew wild type, so positive values are not proof of better growth. The authors count -1 or higher as tolerated. Position 1 is the last residue of NS2A.

With G109Y the assay gave -5.12.
With M110Y the assay gave 0.33.
With N111Y the assay gave -2.36.
With P112Y the assay gave -4.73.
With I113Y the assay gave -4.75.
With A114Y the assay gave -2.84.
With I115Y the assay gave -5.86.
With P116Y the assay gave -5.10.
With F117Y the assay gave -5.99.
With A118Y the assay gave -5.46.
With A119Y the assay gave -3.59.
With G120Y the assay gave -3.10.
With A121Y the assay gave -4.90.
With W122Y the assay gave -2.89.
With V124Y the assay gave -1.38.
With V126Y the assay gave -2.35.
With K127Y the assay gave -5.80.
With T128Y the assay gave -5.84.
With G129Y the assay gave -5.72.
With K130Y the assay gave -6.20.
With R131Y the assay gave -5.74.
With S132Y the assay gave -6.10.
With G133Y the assay gave -5.40.
With A134Y the assay gave -4.81.
With L135Y the assay gave -6.90.
With W136Y the assay gave -6.53.
With D137Y the assay gave -3.19.
With V138Y the assay gave -5.05.
With P139Y the assay gave -4.97.
With A140Y the assay gave -4.84.
With P141Y the assay gave -4.68.
With K142Y the assay gave -4.19.
With E143Y the assay gave -1.38.
With V144Y the assay gave -3.38.
With K145Y the assay gave -2.28.
With K146Y the assay gave -2.83.
With G147Y the assay gave -4.41.
With E148Y the assay gave -3.06.
With T149Y the assay gave -5.10.
With T150Y the assay gave -2.24.
With D151Y the assay gave -2.42.
With G152Y the assay gave -5.83.

The first 4 entries again:

- G109Y: -5.12
- M110Y: 0.33
- N111Y: -2.36
- P112Y: -4.73

Data from the supplement of Ni et al. 2025, doi:10.1038/s41467-025-63602-z.